Values from PubChem BioAssay AID624099 (ICCB-Longwood, 2012).

Purpose: 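Human genes that papillomavirus E2 requires to repress the HPV18 LCR promoter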 (primary screen)
Cell system: human C33A cervical carcinoma cells (HPV-negative) stably expressing BPV1 E2 and an HPV18 LCR luciferase reporter
Reagents: siRNA pool against human genes, 40 nM
Duration: 72 h
Measurement: 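Per-well luciferase luminescence, z-scored on each plate against the plate mean and SD with control wells left out, then averaged across three replicate plates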
Direction: mean z-score and z-score: higher = stronger reporter signal, weaker E2 silencing
Call rule: 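Hit if mean z-score reaches 2 and two or more of three replicate z-scores also reach 2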
In all, the deposit lists about 21,000 reagents; this is a part drawn at random. Over the whole deposit, 497 (2.4%) were called active. 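Higher z means weaker E2 silencing; only reporter increases were scored, and knock-downs that hurt cell survival may mask genuine repressor factors.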

| Gene | mean z-score | z-score, replicate A | z-score, replicate B | z-score, replicate C | outcome |
| --- | --- | --- | --- | --- | --- |
| LINC01684 | 0.35 | 0.03 | 0.83 | 0.18 | inactive |
| PDP1 | 0.75 | 0.8 | 0.66 | 0.78 | inactive |
| LMNTD1 | -1.95 | -1.68 | -2.02 | -2.13 | inactive |
| SLC38A7 | -0.57 | -1.01 | -0.84 | 0.15 | inactive |
| PNPLA2 | 0.81 | 1.32 | 0.89 | 0.24 | inactive |
| HHAT | -1.14 | -1.2 | -1.18 | -1.04 | inactive |
| RNF139 | 1.55 | 1.54 | 1.63 | 1.48 | inactive |
| LOC401622 (retired record) | 0.5 | 0.32 | 0.92 | 0.25 | inactive |
| ARMCX1 | -0.87 | -0.35 | -1.06 | -1.21 | inactive |
| KNDC1 | -0.71 | -0.35 | -0.69 | -1.08 | inactive |
| CLRN1 | 1.49 | 1.03 | 1.98 | 1.46 | inactive |
| THEM4 | 1.12 | 0.92 | 1.03 | 1.41 | inactive |
| DCTN2 | -0.6 | -0.53 | -0.51 | -0.75 | inactive |
| TOM1L2 | 0.83 | 0.73 | 0.7 | 1.07 | inactive |
| DHPS | 0.04 | 0.14 | 0.07 | -0.08 | inactive |
| SOX15 | 1.39 | 1.47 | 1.28 | 1.42 | inactive |
| FBH1 | 0.28 | 0.36 | 0.07 | 0.41 | inactive |
| MYOG | -0.33 | -0.64 | -0.16 | -0.18 | inactive |
| OR2A1 | -0.86 | -1.04 | -0.72 | -0.81 | inactive |
| MINPP1 | 0.59 | 0.78 | 0.44 | 0.55 | inactive |
| RPS6 | -2.15 | -1.95 | -2.3 | -2.21 | inactive |
| ID1 | -0.31 | -0.67 | -0.09 | -0.17 | inactive |
| HES6 | -2.17 | -2.19 | -2.15 | -2.17 | inactive |
| OLAH | 0.24 | 0.61 | -0.04 | 0.14 | inactive |
| ZNF512 | -0.04 | 0.21 | 0.05 | -0.37 | inactive |
| LOC401478 | 0.53 | 0.6 | 0.51 | 0.48 | inactive |

3 entries already listed, ordered by “z-score, replicate A”, high to low:
| Gene | mean z-score | z-score, replicate A | z-score, replicate B | z-score, replicate C | outcome |
| --- | --- | --- | --- | --- | --- |
| THEM4 | 1.12 | 0.92 | 1.03 | 1.41 | inactive |
| TOM1L2 | 0.83 | 0.73 | 0.7 | 1.07 | inactive |
| DCTN2 | -0.6 | -0.53 | -0.51 | -0.75 | inactive |

The results go on.
| Gene | mean z-score | z-score, replicate A | z-score, replicate B | z-score, replicate C | outcome |
| --- | --- | --- | --- | --- | --- |
| PWWP3B | -0.89 | -0.9 | -1.01 | -0.77 | inactive |
| LOC389953 (retired record) | -0.76 | -0.65 | -0.58 | -1.07 | inactive |
| RAB11FIP1 | -0.06 | -0.3 | -0.07 | 0.19 | inactive |
| OR8A1 | -0.81 | -0.9 | -0.79 | -0.74 | inactive |
| CD52 | 0.31 | 0.29 | 0 | 0.64 | inactive |
| MYL4 | 0.12 | 0.24 | 0.26 | -0.15 | inactive |
| PGM1 | -0.93 | -1.17 | -0.78 | -0.84 | inactive |
| FPGT | 1.32 | 1.17 | 1.54 | 1.25 | inactive |
| SPTBN2 | 0.21 | 0.42 | 0.11 | 0.09 | inactive |
| ATP6V1C1 | -0.84 | -0.8 | -0.78 | -0.94 | inactive |
| CALB2 | -0.88 | -0.48 | -1.1 | -1.06 | inactive |
| TNFRSF19 | 0.66 | 0.95 | 0.66 | 0.37 | inactive |
| EDA | 0.55 | 0.41 | 0.52 | 0.71 | inactive |
| CCNT2 | 3.98 | 3.79 | 4.29 | 3.87 | active |
| XKR7 | 0.51 | 0.35 | 0.54 | 0.64 | inactive |
| WNT7A | -0.5 | -0.26 | -0.72 | -0.52 | inactive |
| MITD1 | -0.84 | -0.89 | -0.87 | -0.76 | inactive |
| CCDC14 | -1.19 | -1.13 | -1.05 | -1.39 | inactive |
| PIK3C2G | 1.91 | 0.99 | 3.67 | 1.06 | inactive |
| TERF1 | 0.24 | 0.53 | 0.15 | 0.05 | inactive |
| HNRNPD | 2.55 | 3.06 | 2.23 | 2.36 | active |
| GIPC3 | -0.49 | -0.36 | -0.52 | -0.58 | inactive |
| RINL | 0.17 | -0.18 | 0.13 | 0.54 | inactive |
| DIMT1 | 0.41 | 0.32 | 0.4 | 0.51 | inactive |
| LACTB | 0.31 | 0 | 0.47 | 0.47 | inactive |
| VGLL1 | -0.4 | -0.12 | -0.89 | -0.17 | inactive |
| TCEAL8 | 0.88 | 0.55 | 0.95 | 1.15 | inactive |
| TMEM259 | -1.43 | -1.4 | -1.34 | -1.56 | inactive |
| NAGLU | 0.44 | 0.46 | 0.53 | 0.34 | inactive |
| NRSN2 | 0.38 | 0.47 | 0.18 | 0.49 | inactive |
| MAPK10 | 0.2 | 0.24 | 0.06 | 0.28 | inactive |
